Source: the CheMixHub viscosity set
Several values for one entry are separate records, joined by “and”; a condition that tells them apart may be missing. Identical values can stand only once.

Legend:
[1] = xn = mol fraction of the nth substance listed

CCCCOP(=O)(OCCCC)OCCCC + CS(C)=O
[1], 303.15 K, 101 kPa
Conditions	viscosity [mPa·s]
x2 = 0.1114	3.148
x2 = 0.2201	2.962
x2 = 0.326	2.799
x2 = 0.4293	2.654
x2 = 0.5302	2.582
x2 = 0.6286	2.421
x2 = 0.7248	2.291

CCCCOP(=O)(OCCCC)OCCCC + C1CCCCC1
[1], 303.2 K, 100 kPa
Conditions	viscosity [mPa·s]
x1 = 0.073	0.9019
x1 = 0.17	1.1
x1 = 0.32	1.408
x1 = 0.56	1.918

CCCCOP(=O)(OCCCC)OCCCC + CCCCCCCCCCCC
viscosity [mPa·s], [1], 101 kPa
Conditions	x1 = 0.1	x1 = 0.2	x1 = 0.3002	x1 = 0.4002	x1 = 0.5001	x1 = 0.5999	x1 = 0.7	x1 = 0.7998	x1 = 0.9001
298.15 K	1.413	1.519	1.645	1.824	2.014	2.229	2.48	2.745	3.054
303.15 K	1.316	1.394	1.504	1.648	1.815	2.005	2.204	2.447	2.715
308.15 K	1.191	1.28	1.383	1.51	1.659	1.821	2.004	2.245	2.495
313.15 K	1.105	1.179	1.272	1.385	1.529	1.666	1.842	2.033	2.235
318.15 K	1.023	1.094	1.172	1.279	1.403	1.548	1.69	1.863	2.045
323.15 K	0.946	1.02	1.084	1.185	1.293	1.419	1.55	1.696	1.856

CCCCOP(=O)(OCCCC)OCCCC + CCCCCC
viscosity [mPa·s], [1], 101 kPa
Conditions	x1 = 0.1	x1 = 0.2	x1 = 0.3	x1 = 0.4003	x1 = 0.4996	x1 = 0.6	x1 = 0.7003	x1 = 0.7998	x1 = 0.8988
298.15 K	0.416	0.572	0.763	1.01	1.288	1.604	1.978	2.404	2.882
303.15 K	0.395	0.537	0.712	0.957	1.193	1.466	1.789	2.175	2.584
308.15 K	0.374	0.506	0.666	0.895	1.106	1.349	1.631	1.972	2.33
313.15 K	0.358	0.48	0.626	0.821	1.021	1.247	1.503	1.813	2.115
318.15 K	0.34	0.454	0.59	0.767	0.952	1.157	1.382	1.653	1.931
323.15 K	0.323	0.43	0.557	0.722	0.892	1.075	1.279	1.525	1.773

CCCCOP(=O)(OCCCC)OCCCC + CCCCCCC
[1], 303.2 K, 100 kPa
Conditions	viscosity [mPa·s]
x1 = 0.086	0.4652
x1 = 0.2	0.6206
x1 = 0.36	0.9388
x1 = 0.6	1.269

CCCCOP(=O)(OCCCC)OCCCC + c1ccccc1
viscosity [mPa·s], [1]
Conditions	303.15 K	308.15 K	313.15 K	318.15 K
101 kPa, x1 = 0.106	0.794	0.748	0.72	0.681
101 kPa, x1 = 0.2	0.984	0.91	0.865	0.816
101 kPa, x1 = 0.403	1.385	1.263	1.172	1.118
101 kPa, x1 = 0.609	1.883	1.712	1.575	1.472
101 kPa, x1 = 0.805	2.341	2.108	1.927	1.792
101 kPa, x1 = 0.904	2.582	2.324	2.095	1.963
101.33 kPa, x1 = 0.106	0.794	0.748	0.72	0.681
101.33 kPa, x1 = 0.2	0.984	0.91	0.865	0.816
101.33 kPa, x1 = 0.403	1.385	1.263	1.172	1.118
101.33 kPa, x1 = 0.609	1.883	1.712	1.575	1.472
101.33 kPa, x1 = 0.805	2.341	2.108	1.927	1.792
101.33 kPa, x1 = 0.904	2.582	2.324	2.095	1.963
101.33 kPa, x2 = 0.096	2.582	2.324	2.095	1.963
101.33 kPa, x2 = 0.195	2.341	2.108	1.927	1.792
101.33 kPa, x2 = 0.39	1.883	1.712	1.575	1.472
101.33 kPa, x2 = 0.596	1.385	1.263	1.172	1.118
101.33 kPa, x2 = 0.8	0.984	0.91	0.865	0.816
101.33 kPa, x2 = 0.893	0.794	0.748	0.72	0.681

CCCCOP(=O)(OCCCC)OCCCC
viscosity
Conditions	298.15 K	303.15 K	308.15 K	313.15 K	318.15 K	323.15 K
100 kPa	–	3.009 mPa·s	2.674 mPa·s	2.405 mPa·s	2.166 mPa·s	1.921 mPa·s
101 kPa	3.399 mPa·s	2.817 mPa·s and 3.012 mPa·s	2.68 mPa·s and 2.702 mPa·s (2×)	2.43 mPa·s and 2.441 mPa·s (2×)	2.21 mPa·s and 2.22 mPa·s (2×)	2.022 mPa·s
101.33 kPa	–	–	2.68 mPa·s and 2.68 mPa·s	2.43 mPa·s and 2.43 mPa·s	2.21 mPa·s and 2.21 mPa·s	–

CCCCOP(=O)(OCCCC)OCCCC + Cc1ccccc1C
viscosity [mPa·s], [1], 101.33 kPa
Conditions	x1 = 0.103	x1 = 0.199	x1 = 0.395	x1 = 0.602	x1 = 0.804	x1 = 0.902
303.15 K	0.986	1.256	1.721	1.963	2.505	2.84
308.15 K	0.937	1.213	1.618	1.812	2.263	2.561
313.15 K	0.906	1.159	1.529	1.664	2.086	2.282
318.15 K	0.875	1.102	1.448	1.559	1.904	2.081
